Measurements: patent US20250296984A1, “THERAPEUTIC AND DIAGNOSTIC AGENTS AND USES THEREOF” (priority 2022, published 2025)

B1: 2F5B11-Myc: 2F5B11 labelled with a Myc tag (antibody, V domains shown)
VH: EVQLQESGAELAKPGASVKMSCKASGYTFSSYWIHWIKQRPGQGLEWIGYINPNTAYTEFNQKFMDKATLTADKSSSTAYMQLTSLTSEDSAVYYCARLRSDRTGFAYWGQGTLVTVSA
VL: QIVLTQSPSSLAVSVGEKVTMS[about 80 residues not printed]FGAGTKLEIK
B2: 4H3C3-Myc: 4H3C3 labelled with a Myc tag (antibody, V domains shown)
VH: QVQLQQSGAELAKPGASVKMSCKASGYTFTSYWMHWVKQRPGQGLEWIGYINPSTGYAEYNQKFKDKATLTADKSSSTAYMQLSSLTSEDSAVYYCARLRFGSSGFAYWGQGTLVTVSS
VL: QIVLTQSPSSLAVSVGEKVTMS[about 80 residues not printed]FGAGTKLEIK

Key:
[1] = target: T1, US28 protein from HCMV strain Merlin on HEK Phoenix Ampho cells (Human cytomegalovirus, S330G); test: Flow cytometry, HEK Phoenix Ampho cells transfected with US28 (Merlin); type: binding; conditions: mock subtracted, fold-difference minus 1, sign = increase or decrease
T1 construct: expressed in transfected cells; host or cells: HEK Phoenix Ampho (ATCC-CRL-3213)
Description: (§1) ii. Materials: • Cells: HEK Phoenix Ampho (ATCC-CRL-3213), p 21. • Staining buffer: PBS with 1% BSA, 2 mM EDTA. • Plasmid: Encoding US28 protein from different HCMV strains: DB; TB40/E; Merlin; and VHL/E. • Blocking: Human TruStain FcX™ (ref 422302). • Live Dead: Invitrogen™ eBioscience™ Fixable Viability Dye eFluor™ 780 (ref 13539140). • Primary antibodies: 7B1F3 (6.76 nM=1 μg/ml); hum7B1F3 (6.76 nM=1 μg/ml).
(§2) The day before transfection, HEK Ampho cells were seeded in a 1×6-well plate with 1×10^6 live cells/well, 2 mL/well. Seeded 4 wells for HEKPhoenix_plasmids. Seeded 2 wells for HEKPhoenix_Mock transfected. Incubated the cells in a 37° C. incubator with >80% relative humidity and 5% CO2.
(§3) After 1 day, cells will have adhered and reached >60% confluency. Removed 700 uL media from each well prior to transfection. Allowed X-tremeGENE™ HP DNA Transfection Reagent, DNA and diluent Opti-MEM® I Reduced Serum Medium to warm to +15° C. to +25° C., and vortexed gently. Placed 100 μL diluent in a sterile tube for each condition. Added 1 μg plasmid DNA. Pipetted gently to mix (DNA was not added for the mock condition): • DB (683.3 ng/μL): 1.46 μL • TB40/E (742.05 ng/μL): 1.35 μL • Merlin (70.78 ng/μL): 14.13 μL • VHL/E (51.87 ng/μL): 19.28 μL
(§4) Added 3 μL X-tremeGENE™ HP DNA Transfection Reagent to the diluted DNA. (3:1 ratio of reagent to DNA). Pipetted gently to mix, then: • 1. […]

[2] = target: T2, US28 protein from HCMV strain DB on HEK Phoenix Ampho cells (Human cytomegalovirus, D170N/D19A); test: Flow cytometry, HEK Phoenix Ampho cells transfected with US28 (DB); type: binding; conditions: mock subtracted, fold-difference minus 1, sign = increase or decrease
T2 construct: expressed in transfected cells; host or cells: HEK Phoenix Ampho (ATCC-CRL-3213)
Description: as §1, §2, §3, §4

Molecule | Variation in binding, relative to determined binding to US28 as encoded by VHL/E; Merlin [1] | Variation in binding, relative to determined binding to US28 as encoded by VHL/E; DB [2]
B1 | +0.01 | –
B2 | – | +0.59
